1 compound from ChEMBL document CHEMBL1201862, “PubChem BioAssay data set” (2004) can be followed below.

This is one part of the list. The calls are words filed in the database; no cut-off is given here. These assays gave more results; the selection is not random.

For the test, the target named is T1, Phosphoglycerate kinase, glycosomal (Trypanosoma brucei brucei) (UniProt P07378).
T1 sequence (whole entry): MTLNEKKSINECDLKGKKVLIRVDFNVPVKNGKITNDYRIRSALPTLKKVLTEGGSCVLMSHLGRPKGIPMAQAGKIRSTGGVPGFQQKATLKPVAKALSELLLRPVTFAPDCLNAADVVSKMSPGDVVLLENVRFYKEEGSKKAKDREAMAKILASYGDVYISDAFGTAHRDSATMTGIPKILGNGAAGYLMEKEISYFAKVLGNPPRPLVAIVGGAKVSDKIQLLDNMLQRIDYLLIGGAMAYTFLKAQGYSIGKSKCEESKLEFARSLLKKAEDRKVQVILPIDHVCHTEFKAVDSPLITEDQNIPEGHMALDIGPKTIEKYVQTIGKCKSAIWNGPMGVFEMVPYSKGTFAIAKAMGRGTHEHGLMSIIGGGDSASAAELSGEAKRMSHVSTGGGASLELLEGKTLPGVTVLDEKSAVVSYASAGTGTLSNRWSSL
The experiment in a line: qHTS for inhibitors of Phosphogylcerate Kinase: Hit Validation Screen. In kind it is functional. For orientation: Quantitative high-throughput screening tests each substance at several concentrations.

On to `O=C1C(O)=C([N+](=O)[O-])C(=O)C(O)=C1[N+](=O)[O-]`, for which the Potency is active: 5.8 µM.
